Results of unrelated studies side by side (data: NIAID ChemDB).

Shared fields: tests in culture; organism: HIV-1; cells: MT-4; measure: EC50

ECn is the concentration giving n% inhibition of infection, replication or growth.

smiles | strain | mutations | method | setting | value
Nc1c(-c2ccccn2)n(COCCO)c2ccccc12 |  |  |  |  | >50 µM
O=S1(=O)NC(Cc2cccc3ccccc23)=CC(=NC2CCN(Cc3c(Cl)cccc3Cl)CC2)N1 | IIIB |  | MTT |  | ≥42.87 µM
c1ccc(CNCc2ccc(CN3CCNCCc4cccc(n4)CCNCC3)cc2)nc1 | IIIB |  | MTT |  | 0.001 µM
Cc1ccccc1CN1CCC(N=C2C=C(Cc3ccc(Cl)cc3Cl)NS(=O)(=O)N2)CC1 | IIIB |  | MTT |  | 24.18 µM
Nc1ncnc2c1ncn2CCOCP(=O)(O)O |  |  | cytopathic effect / MTT |  | 2 µg/mL
Cc1cn([C@H]2C[C@H](F)[C@@H](CO)O2)c(=O)[nH]c1=O | SCV 4005 |  | RT activity |  | 0.012 µM
OCCOCn1c(-c2ccccc2)c(Br)c2ccccc21 |  |  |  |  | >117 µM
Cc1cc(C)c(CN2CCC(N=C3C=C(Cc4ccc(Cl)cc4Cl)NS(=O)(=O)N3)CC2)c(C)c1 | IIIB |  | MTT |  | >37.35 µM
CC(C)OC(=O)OCOc1c2c(c3n(c1=O)[C@@]1(CC[C@H]4C[C@H]41)N(C[C@H](C)OP(=O)(O)O)C3=O)CCN(Cc1ccc(F)c(Cl)c1)C2=O |  |  | GFP | 0% human serum | >4.2 µM
CC(=O)OCCOCn1c(-c2ccccc2)c(Br)c2ccccc21 |  |  |  |  | >120 µM
Cc1nn(-c2ccccc2)c2nn(N)nc12 |  |  | cytopathic effect / MTT |  | >154 µM
N#Cc1ccc(CN2CCC(N=C3C=C(Cc4cccc5ccccc45)NS(=O)(=O)N3)CC2)cc1 | RES056 | RT-K103N Y181C | MTT |  | >100 µM
Nc1ncnc2c1nnn2CCOCP(=O)(O)O |  |  | cytopathic effect / MTT |  | 94 µM
CC(=O)OCCOCn1cc(C(C)=O)c2ccccc21 |  |  |  |  | >200 µM
Cc1cccc(C)c1OCC(=O)N[C@@H](Cc1ccccc1)[C@H](O)C(=O)N1CSC(C)(C)[C@H]1C(=O)NC(C)(C)C |  |  |  |  | 1.73 µM
COC(=O)[C@H](CC(C)C)NC(=O)COc1ccc2ccccc2c1 | IIIB |  | cytopathic effect / MTT |  | >100 µg/mL
C=C(C)[C@]12C[C@@H](COC(=O)c3ccccc3)[C@@]34OC5(O[C@@H]1[C@@H]3[C@@H]1O[C@]1(COC(=O)c1ccccc1)[C@@H](O)[C@@]1(O)[C@H]4[C@H]([C@H](C)[C@@H]1O)[C@@H](C)CCCCCC[C@H]5O)O2 | NL4-3 |  | luciferase |  | 0.00361 µM
Nc1ccn([C@H]2CC[C@@H](CO)O2)c(=O)n1 | IIIB |  | cytopathic effect / MTT |  | 0.4 µM
COC(=O)[C@H](C)NC(=O)COc1ccc2ccccc2c1 | IIIB |  | cytopathic effect / MTT |  | >59 µg/mL
CCCNC(=O)/N=C1\C(=[N+]=[N-])C(C)=NN1c1ccccc1 |  |  | cytopathic effect / MTT |  | >77 µM
Nc1nc2c(ncn2CCOCP(=O)(O)O)c(=O)[nH]1 |  |  | cytopathic effect / MTT |  | 0.19 µM
Cc1cn([C@H]2CC[C@H](CO)O2)c(=O)[nH]c1=O | IIIB |  | MTT / syncytia |  | >1000 µM
CC(C)=CCN1c2cc(Cl)cc3[nH]c(=S)n(c23)C[C@@H]1C |  | RT-D67N K70R T215Y K219Q A98G |  |  | <0.2 µM
O=c1[nH]cnc2c1ncn2[C@H]1CC[C@@H](CO)O1 | IIIB |  | cytopathic effect / MTT |  | 0.96 µM
Cc1nn(-c2ccccc2)c2c1nnn2Cc1ccccc1 |  |  | cytopathic effect / MTT |  | >114 µM
CC(=O)OCCOCn1c(-c2ccccn2)c([N+](=O)[O-])c2ccccc21 |  |  |  |  | >200 µM
Nc1ncnc2c1ncn2CCOCP(=O)(O)O |  |  | cytopathic effect / MTT |  | 5.3 µM
COC(=O)CNC(=O)COc1ccc2ccccc2c1 | IIIB |  | cytopathic effect / MTT |  | >100 µg/mL
Cc1ccccc1CN1CCC(N=C2C=C(Cc3cccc4ccccc34)NS(=O)(=O)N2)CC1 | IIIB |  | MTT |  | 28.65 µM
CCOP(=O)(O)COCCn1nnc2c(=O)[nH]c(N)nc21 |  |  | cytopathic effect / MTT |  | >315 µM
N#Cc1cccc(CN2CCC(N=C3C=C(Cc4ccc(Cl)cc4Cl)NS(=O)(=O)N3)CC2)c1 | IIIB |  | MTT |  | 35 µM
O=C(NCc1ccc(F)cc1)c1nc(N2CCCCS2(=O)=O)c2cccnc2c1O | IIIB |  | p24 |  | <0.1 µM
CC(=O)c1ccc(CN2CCC(N=C3C=C(Cc4cccc5ccccc45)NS(=O)(=O)N3)CC2)cc1 | IIIB |  | MTT |  | ≥33.42 µM
Nc1c(-c2ccccc2)n(COCCO)c2ccccc12 |  |  |  |  | >105 µM
N=c1ncn([C@H]2CC[C@@H](CO)O2)c2nc[nH]c12 |  |  |  |  | 264 µM
NNC(=O)CNC(=O)COc1ccc2ccccc2c1 | IIIB |  | cytopathic effect / MTT |  | >100 µg/mL
C=C(C)[C@]12C[C@@H](C)[C@@]34OC5(CCCCCCC[C@H](C)[C@H]6[C@H](C)[C@H](O)[C@@](O)([C@H](O)[C@@]7(COC(=O)c8ccccc8)O[C@H]7[C@H]3[C@H]1O5)[C@@H]64)O2 | NL4-3 |  | luciferase |  | 0.00099 µM
Cc1cn([C@@H]2O[C@@H](CO)[C@@H](N)[C@H]2O)c(=O)[nH]c1=O | IIIB |  | MTT / syncytia |  | >1000 µM
COC(=O)[C@@H](NC(=O)COc1ccc2ccccc2c1)C(C)C | IIIB |  | cytopathic effect / MTT |  | >42 µg/mL
CC(C)c1nc(COC(N)=O)n(Cc2ccncc2)c1S(=O)c1cc(Cl)cc(Cl)c1 |  |  | cytopathic effect / MTT |  | 0.5 µg/mL
Cc1cn([C@H]2C=C[C@H](CO)O2)c(=O)[nH]c1=O | IIIB |  | MTT / syncytia |  | >10 µM

5 of the rows above, restated:

smiles | strain | mutations | method | setting | value
CC(=O)OCCOCn1c(-c2ccccn2)c([N+](=O)[O-])c2ccccc21 |  |  |  |  | >200 µM
N=c1ncn([C@H]2CC[C@@H](CO)O2)c2nc[nH]c12 |  |  |  |  | 264 µM
CCOP(=O)(O)COCCn1nnc2c(=O)[nH]c(N)nc21 |  |  | cytopathic effect / MTT |  | >315 µM
O=C(NCc1ccc(F)cc1)c1nc(N2CCCCS2(=O)=O)c2cccnc2c1O | IIIB |  | p24 |  | <0.1 µM
Cc1cccc(C)c1OCC(=O)N[C@@H](Cc1ccccc1)[C@H](O)C(=O)N1CSC(C)(C)[C@H]1C(=O)NC(C)(C)C |  |  |  |  | 1.73 µM

An empty or dashed field is not shown. Conditions beyond the fields shown may differ between rows.